## Percent effect of library compounds

Data taken from ChEMBL document CHEMBL3988442, “University of Dundee, Small-Polar-MMV Screening Library” (2021).

A: 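Whole-cell growth test on Mycobacterium tuberculosis, read after 3 days in glucose-containing 7H9 medium; the read-out is not stated. Concentration: 500 µM. Higher reads as more growth inhibition (inferred: compounds with an IC50 in retests scored well above the rest). About 18,000 compounds were tested under these conditions; 7.9% (about 1,400) showed 50% or more at least once.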
B: 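Phenotypic screen: M. tuberculosis growth, cholesterol and DPPC medium, 4 days; the read-out is not stated. Tested at 500 µM. Direction is inferred from retests: higher values go with more growth inhibition. About 18,000 compounds were tested under these conditions; 5% (about 900) showed 50% or more at least once.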

Values are the deposited “Percent Effect”, in %. The controls that fix the scale are not given in the record; negative values are as filed. The entries come from a sample that favours strong results. A dash means the value is not listed here; it may have been measured.

SMILES | A | B
COC(=O)c1cnn(-c2ccccc2)n1 | - | -11.38
CCC[C@H]1CN(C(=O)c2ccc(CO)o2)C[C@@H]1N(C)C | 9.3 | -
COc1ccnc(NCc2ccc3c(c2)OCCO3)n1 | 14.74 | -
Cc1cccc(C)c1NC(=O)CN1CCNCC1 | -5.374 | 6.605
O=C(NC1CC1)c1ccccc1C(F)(F)F | -2.475 | -
CCNC(=O)C1CCN(c2ccncc2Cl)CC1 | 1.491 | 1.738
COc1ccc(Cn2[nH]ccc2=N)cc1 | 20.1 | -
O=C(NCCc1cn[nH]c1)C(O)c1ccc(Cl)cc1 (stereo not given) | 0.1695 | -
CC(C)(N)c1nc2c(c(=O)[nH]1)CCCC2 | 10.82 | -
O=C(CCN1CCCC1)N1CCc2ccccc21 | 73.22 | -
O=C(Nc1cccc(Cl)c1)C1CCCN1 (stereo not given) | 42.03 | 51.77
COc1cccc(N2CC(N)CC2=O)c1 (stereo not given) | 25.09 | -
CCC1CN(S(C)(=O)=O)c2ccccc2O1 (stereo not given) | 58.8 | 69.1
CC(C)CNC(=O)c1cc(F)cc(F)c1 | 1.785 | 6.02
CNC(=O)C1CCCCN1C(=O)Cn1nc(C)cc1N (stereo not given) | -0.2409 | -
CC(OCc1ccccc1)C(=O)NCc1c[nH]nn1 (stereo not given) | 12.78 | -
COC(=O)c1cccc(CNCCC(=O)N(C)C)c1 | 4.377 | 6.394
COCC(=O)Nc1cc(OC)c(Br)cn1 | - | -3.57
CN(C)CC(=O)Nc1cc(Cl)cc2c1OCC2 | - | -3.074
COc1ccc(C(=O)NC2(C#N)CCOCC2)cc1Br | - | 6.3
COCCC(=O)NCC(O)c1c(Cl)cccc1Cl (stereo not given) | 11.16 | -
CCCc1cc(C(N)=O)ccn1 | - | 5.832
CNC(=O)c1cc(NC)ccn1 | - | -0.8976
NCC(=O)Nc1ccc(-n2cccn2)cc1 | - | 18.11
CN(Cc1ccccc1)C(=O)c1cnn(C)c1 | 43.28 | -
c1cn2c(n1)CCC2 | 6.831 | -
CCC(CO)(CO)NC(=O)c1csc(C(C)C)n1 | 18.59 | -
COc1ccc(COCCNC(C)=O)cc1 | 21.53 | -
Cc1ccc(CN(C)CC(N)=O)o1 | 2.929 | -
Cn1cnn(Cc2nnc(-c3cccs3)o2)c1=O | - | -4.054
COCCCNS(=O)(=O)c1ccc2c(c1)NC(=O)CS2 | 33.72 | -
COc1cccc(C(=O)NC2CCNCC2)c1 | -2.507 | -
C[C@H](N)c1ncccc1F | 1.847 | -
CN(Cc1ccc(Br)o1)C(=O)c1nccnc1N | 60.7 | -
O=C(NC1CCN(C2CCOCC2)CC1)c1ccoc1 | -2.827 | -
CNC(=O)c1ccc(CNC(=O)C2CCOC2)o1 (stereo not given) | - | -8.158
CC1CN(c2nccc(N(C)C)n2)CCS1(=O)=O (stereo not given) | 16.12 | -
O=C(Cc1ccccc1F)Nc1ccon1 | 15.3 | 9.393
CC(C(=O)NC1CC1)N1CCNCC1 (stereo not given) | -5.397 | -
COc1cccc(C2=NN=C(NC3CC3)SC2)c1 | 79.76 | 84.07
CN(C)C(=O)Cc1ccc(NC(=O)C2CC2)cc1 | 28.12 | -
NCc1cccnc1O | -16.08 | -
COc1ccccc1-c1[nH][nH]c(=O)c1CCN | 41.84 | -
CC(C)Oc1cc(N2C[C@@H](C)[C@@](C)(O)C2)nc(N)n1 | - | 5.194
CC(C)(C)C(=O)NC1CCS(=O)(=O)c2ccccc21 (stereo not given) | 8.277 | -
Cc1ncccc1NC(=O)c1cccc(S(C)(=O)=O)c1 | - | 1.73
CC(C)CC(C)(CN)NS(=O)(=O)c1cccnc1 (stereo not given) | - | 12.61
CC1(N)Cc2ccccc2C1 | 48.19 | -
CCC(C)(C)NCC(=O)Nc1ccc2c(c1)OCCO2 | 23.63 | 28.31
O=C(c1ccco1)N1CCCN(Cc2cscn2)CC1 | 29.44 | 78.72
Cc1cnccc1NCCNC(=O)c1ccccc1Cl | - | 17.69
Cc1ncc(S(C)(=O)=O)c(NC2(C(N)=O)CCCC2)n1 | 9.819 | -
CC1(C)CN(c2ncccc2C#N)CCO1 | 8.731 | 2.277
CC(=O)N1CCN(C(=O)c2nccnc2N)CC1 | - | 2.485
CCS(=O)(=O)NCCNC(=O)c1ccccc1 | 25.09 | -
COC[C@@H](O)CNC1CCOc2c(Br)cccc21 (stereo not given in full) | - | 40.06
NC(=O)C1CNCCO1 (stereo not given) | - | 3.995
CCn1nc(C)cc1C(=O)NCCCc1ncc[nH]1 | - | -3.099
CS(=O)(=O)NCCSCC(O)c1ccccc1 (stereo not given) | 17.27 | -
CCC[C@H](N)C(N)=O | 20.41 | -
CN(Cc1ccco1)c1ncnc2c1cnn2CCO | 37.25 | -
COC(=O)c1cn(CCO)nn1 | 1.945 | -
CCC(Oc1ccccc1C)C(=O)NN1CCOCC1 (stereo not given) | -2.737 | -
CC(=O)c1cccc(COC(=O)c2cccnc2)c1 | 56.3 | 99.72
COc1cccc2c1CCNCC2 | 69.93 | 52.2
O=S(=O)(CCN1CCCC(O)C1)c1ccc(Br)cc1 (stereo not given) | 97.17 | 94.29
c1snnc1CN1CCC(OCC2CCOC2)CC1 (stereo not given) | -9.996 | -
Cc1c[nH]c(CN(C)Cc2ccc(N(C)C)nc2)n1 | - | 12.87
CC(=O)NCC1CN(c2ncccc2F)CCO1 (stereo not given) | 56.97 | -
CNC(=O)CCN1CCC(c2ccc(OC)cc2)CC1 | 16.37 | -
CCN(CC)Cc1nnnn1-c1ccccc1 | - | 1.729
CC(C)N1CCCC(N(C)CC(C)(CO)CO)C1=O (stereo not given) | -6.404 | -
CCc1ncc(C(=O)NCCNC(=O)c2ccoc2)s1 | 26.47 | -
CCN(CCn1cccn1)C(=O)c1cc(C)n[nH]1 | - | 39.44
CC(=O)Nc1ccc(C(=O)CSc2nnc[nH]2)cc1 | 40.16 | -
CN1CCN(Cc2ccc(N(C)C)nc2)CCC1=O | -14.37 | -
OCCCN1CCCN(Cc2ccc(F)cc2)CC1 | 60.35 | -
Cc1cccc(C[S+]([O-])CC(=O)NCC2CC2)c1 (stereo not given) | 51.98 | 52.46
c1ccc2[nH]c(N3CCCNCC3)nc2c1 | 0.15 | -
CN(CC(N)=O)C(=O)CCc1nc2ccccc2s1 | -2.706 | -
COCCNCC(=O)Nc1cccc(C(C)SC)c1 (stereo not given) | 41.57 | -